{
  "source": "patent US20240336672A1",
  "assay_in_all_cases": "polyreactivity ELISA",
  "set-up_in_all_cases": "unit not given beside the values",
  "key": {"[1]": {"target": "MAPK14"}, "[2]": {"target": "Insulin"}, "[3]": {"target": "Tg"}, "[4]": {"target": "LZ"}, "[5]": {"target": "KLH (keyhole limpet)"}},
  "data": [
    {"substance": "mGO53 (antibody)", "values": [
      {"measurement": "AUC (polyreactivity ELISA)", "setting": "[1]", "value": 0.5},
      {"measurement": "AUC (polyreactivity ELISA)", "setting": "[2]", "value": 0.6},
      {"measurement": "AUC (polyreactivity ELISA)", "setting": "[3]", "value": 0.6},
      {"measurement": "AUC (polyreactivity ELISA)", "setting": "[4]", "value": 0.6},
      {"measurement": "AUC (polyreactivity ELISA)", "setting": "[5]", "value": 0.6}
    ]}
  ]
}
